These results are taken from paper PMC10998906, “Triple tandem trimer immunogens for HIV-1 and influenza nucleic acid-based vaccines” (2024).

For experiment [1], the target named is cH125/111 TTT (head-chimeric HA TTT). The experiment in a line: negative-stain EM.
Experiment [2] addresses cH125 TTT (protomer-chimeric HA TTT). The experiment in a line: negative-stain EM.

For the substance CR9114 Fab, the stoichiometry N (Fabs per trimer) in experiment [1] and in experiment [2] was 3 throughout.
